Source: patent publication US11479582B2 (KING FAISAL UNIVERSITY, dated 2022)

Legend:
[1] = target: SARS-CoV-2 spike (S) protein, expressed from a synthetic S gene (SARS-CoV-2, UniProt P0DTC2); test: cell-based or functional assay
[2] = target: SARS-CoV-2 spike (S) protein on replication-competent SARS-CoV-2 (SARS-CoV-2, UniProt P0DTC2); test: cell-based or functional assay

B1: peptide #125 (mutated HR2 39-mer, 'High Affinity') (peptide)
peptide: HRLRQIRGIRARVVQIQKEIWRLNEVAKLLNESLIYLQE
- IC50, SARS-CoV-2 Spike-mediated cell-cell fusion [1]: 4400 nM
- IC50, SARS-CoV-2 pseudovirus infection in Calu-3 cells [1]: 1200 nM
- IC50, SARS-CoV-2 pseudovirus infection in VeroE6 [1]: 2400 nM
- IC50, TMPRSS2-dependent plasma membrane pathway in VeroE6-TMPRSS2 [1]: 1700 nM
- IC50, SARS-CoV-2 RNA quantification [2]: 160 nM
- IC50, SARS-CoV-2 plaques inhibition assay [2]: 460 nM
